Our source for the inhibition values is article PMC8225628, “Bispecific repurposed medicines targeting the viral and immunological arms of COVID-19” (Scientific Reports, 2021).

In general, inhibition refers to the drop in the measured response relative to a control, in per cent.

This assay addresses SARS-CoV-2 M^pro (Severe acute respiratory syndrome coronavirus 2, UniProt P0DTD1). The assay is described as follows: biochemical. The conditions noted are these: read-out: M^pro % inhibition at 10 µM.

Regarding `COc1cc(O)c(CC=C(C)C)c(O)c1C(=O)/C=C/c1ccc(O)cc1` [xanthohumol], the inhibition at 10 µM was found to be 11%.
